Record: PubChem BioAssay AID1259414 (Drosophila RNAi Screening Center, 2018)

- Screen: 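Genome-wide screen for host control of endosymbiont load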 (primary screen)
- Cell system: Drosophila JW18 cells infected with Wolbachia
- Reagent: long dsRNA against Drosophila genes, 0.25 µg dsRNA per well of a 384-well plate
- Time to read-out: 5 days
- Treatment: cells persistently infected with Wolbachia before knock-down; no added drug
- Measurement: 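Imaged fluorescence in situ signal for Wolbachia 23S rRNA per DAPI-counted host cell, given as a robust z-score within each plate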
- Scale: Wolbachia per cell robust z: higher = more Wolbachia per host cell than the plate typical
- Active means: 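Hit when robust z is 1.5 or more, or -1.5 or less, in at least two of three replicates; excludes dsRNAs with several or no targets, genes not expressed in JW18 and well A1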
The deposit covers about 24,000 reagents; below is an unselected part of those that have a named target and a result. Over the whole deposit, about 1,210 (5%) were called active. 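Inactive calls also include excluded dsRNAs with several or no targets, genes unexpressed in JW18, and well A1, regardless of score.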 Entries without a mark were called inactive.

For CG7685 [SID104196077], the entry reads Wolbachia per cell robust z, rep 1 = 0.0387; Wolbachia per cell robust z, rep 2 = 0.0423; Wolbachia per cell robust z, rep 3 = 1.12.
After knock-down of CG7685 [SID104206104] the results were Wolbachia per cell robust z, rep 1 = 0.71; Wolbachia per cell robust z, rep 2 = -0.16; Wolbachia per cell robust z, rep 3 = -0.303.
Knock-down of CG34287 [SID104216243] came out at: Wolbachia per cell robust z, rep 1 = -0.379; Wolbachia per cell robust z, rep 2 = -0.427; Wolbachia per cell robust z, rep 3 = 0.0288.
For BBS8 [SID104180152], the entry reads Wolbachia per cell robust z, rep 1 = -0.308; Wolbachia per cell robust z, rep 2 = -0.17; Wolbachia per cell robust z, rep 3 = -0.609.
BBS8 [SID104206302] gave Wolbachia per cell robust z, rep 1 = -0.142; Wolbachia per cell robust z, rep 2 = -0.788; Wolbachia per cell robust z, rep 3 = -11.9.
Knock-down of CG11986 [SID104194253] resulted in: Wolbachia per cell robust z, rep 1 = 0.718; Wolbachia per cell robust z, rep 2 = 0.619; Wolbachia per cell robust z, rep 3 = -4.08.
Against CG11986 [SID104203235] the deposit lists Wolbachia per cell robust z, rep 1 = 1.2; Wolbachia per cell robust z, rep 2 = -0.0593; Wolbachia per cell robust z, rep 3 = -0.151.
For VhaPPA1-2 [SID104195968], the values are Wolbachia per cell robust z, rep 1 = 0.432; Wolbachia per cell robust z, rep 2 = -7.2; Wolbachia per cell robust z, rep 3 = -0.499.
After knock-down of VhaPPA1-2 [SID104204135], the screen gave Wolbachia per cell robust z, rep 1 = 0.26; Wolbachia per cell robust z, rep 2 = -1; Wolbachia per cell robust z, rep 3 = -0.916.
Depletion of fon [SID104182299] gave: Wolbachia per cell robust z, rep 1 = -0.324; Wolbachia per cell robust z, rep 2 = 0.102; Wolbachia per cell robust z, rep 3 = 0.481.
CG6125 [SID104195762] gave Wolbachia per cell robust z, rep 1 = 0.0374; Wolbachia per cell robust z, rep 2 = -0.0145; Wolbachia per cell robust z, rep 3 = -1.3.
After knock-down of CG34431 [SID104208428], the record shows Wolbachia per cell robust z, rep 1 = 0.0665; Wolbachia per cell robust z, rep 2 = -0.125; Wolbachia per cell robust z, rep 3 = -7.79.
